Results: patent US20120040030A1, “HERBAL-BASED NASAL SOLUTION AND METHOD OF USE THEREOF” (published 2012)

Tested on: human nasal polyp tissue
Test: cytokine release, spontaneous and after Staphylococcus enterotoxin B (SEB) stimulation, ex-vivo tissue fragments
Settings: about 24 hours

CCC(=O)O[C@]1(C(=O)SCF)[C@H](C)C[C@H]2[C@@H]3C[C@H](F)C4=CC(=O)C=C[C@]4(C)[C@@]3(F)[C@@H](O)C[C@@]21C
impact on IL-10 release (FIG. 11): substantially minimal impact | impact on TGF-β release (FIG. 13): substantially little impact | SEB-stimulated release of IL-2 (about 0.5 μg/ml SEB, supernatant, FIG. 3): only partially inhibited | SEB-stimulated release of IFN-γ (about 0.5 μg/ml SEB, supernatant, FIG. 4): only partially inhibited | SEB-stimulated release of IL-4 (about 0.5 μg/ml SEB, supernatant, FIG. 5): substantially inhibited | SEB-induced release of IL-5 (about 0.5 μg/ml SEB, supernatant, FIG. 6): substantially inhibited | SEB-induced release of IL-13 (about 0.5 μg/ml SEB, supernatant, FIG. 7): substantially inhibited | SEB-stimulated release of IL-17 (about 0.5 μg/ml SEB, supernatant, FIG. 8): only partially inhibited | SEB-induced release of IL-1β (about 0.5 μg/ml SEB, supernatant, FIG. 9): hardly inhibited | SEB-stimulated release of TNF-α (about 0.5 μg/ml SEB, supernatant, FIG. 10): not inhibited | SEB-stimulated release of IL-12 p70 (about 0.5 μg/ml SEB, supernatant, FIG. 12): substantially inhibited
